PubChem BioAssay AID1259414 – Drosophila RNAi Screening Center, 2018

Assay: 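Host factors increasing or decreasing Wolbachia levels in cultured fly cells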 (primary screen)
Cell system: Drosophila JW18 cells infected with Wolbachia
Knock-down reagent: long dsRNA against Drosophila genes, 0.25 µg dsRNA per well of a 384-well plate
Time to read-out: 5 days
Conditions: cells persistently infected with Wolbachia before knock-down; no added drug
Read-out: 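Imaged fluorescence in situ signal for Wolbachia 23S rRNA per DAPI-counted host cell, given as a robust z-score within each plate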
Scale: Wolbachia per cell robust z: higher = more Wolbachia per host cell than the plate typical
Call rule: 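Hit when robust z is 1.5 or more, or -1.5 or less, in at least two of three replicates; excludes dsRNAs with several or no targets, genes not expressed in JW18 and well A1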
In all, the deposit lists about 24,000 reagents; this is a random part of those that have a named target and a result. Over the whole deposit, about 1,210 (5%) were called active. 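Inactive calls also include excluded dsRNAs with several or no targets, genes unexpressed in JW18, and well A1, regardless of score.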 Unmarked entries are inactive. The numbers tell different reagents against one gene apart.

CG8813 #1: Wolbachia per cell robust z, rep 1 = -0.0753; Wolbachia per cell robust z, rep 2 = -0.67; Wolbachia per cell robust z, rep 3 = 1.14
CG8813 #2: Wolbachia per cell robust z, rep 1 = 0.895; Wolbachia per cell robust z, rep 2 = 0.665; Wolbachia per cell robust z, rep 3 = -1.31
gdrd: Wolbachia per cell robust z, rep 1 = -5.35; Wolbachia per cell robust z, rep 2 = -2.66; Wolbachia per cell robust z, rep 3 = -0.734
Bem46: Wolbachia per cell robust z, rep 1 = -1.74 (active); Wolbachia per cell robust z, rep 2 = 0.873; Wolbachia per cell robust z, rep 3 = -2.68
Lip3 #1: Wolbachia per cell robust z, rep 1 = -0.0113; Wolbachia per cell robust z, rep 2 = 0.375; Wolbachia per cell robust z, rep 3 = 1.11
Lip3 #2: Wolbachia per cell robust z, rep 1 = -0.456; Wolbachia per cell robust z, rep 2 = 0.368; Wolbachia per cell robust z, rep 3 = -0.681
eff #1: Wolbachia per cell robust z, rep 1 = -0.696; Wolbachia per cell robust z, rep 2 = 1.36; Wolbachia per cell robust z, rep 3 = 1.03
eff #2: Wolbachia per cell robust z, rep 1 = 0.749; Wolbachia per cell robust z, rep 2 = 0.473; Wolbachia per cell robust z, rep 3 = -0.539
LpR2 #1: Wolbachia per cell robust z, rep 1 = 0.0559; Wolbachia per cell robust z, rep 2 = -0.281; Wolbachia per cell robust z, rep 3 = 0.241
LpR2 #2: Wolbachia per cell robust z, rep 1 = -0.429; Wolbachia per cell robust z, rep 2 = 0.422; Wolbachia per cell robust z, rep 3 = 0.394
LpR2 #3: Wolbachia per cell robust z, rep 1 = 1.09; Wolbachia per cell robust z, rep 2 = -0.518; Wolbachia per cell robust z, rep 3 = -0.861
LpR2 #4: Wolbachia per cell robust z, rep 1 = 0.605; Wolbachia per cell robust z, rep 2 = 0.524; Wolbachia per cell robust z, rep 3 = 0.66
CG34305: Wolbachia per cell robust z, rep 1 = -0.387; Wolbachia per cell robust z, rep 2 = 0.627; Wolbachia per cell robust z, rep 3 = -0.181
fl(2)d: Wolbachia per cell robust z, rep 1 = 0.643 (active); Wolbachia per cell robust z, rep 2 = 1.79; Wolbachia per cell robust z, rep 3 = 1.72
GAPcenA: Wolbachia per cell robust z, rep 1 = -1.44; Wolbachia per cell robust z, rep 2 = -5.57; Wolbachia per cell robust z, rep 3 = 0.298
Exn #1: Wolbachia per cell robust z, rep 1 = 0.469; Wolbachia per cell robust z, rep 2 = -1.07; Wolbachia per cell robust z, rep 3 = -2.66
Exn #2: Wolbachia per cell robust z, rep 1 = 0.799; Wolbachia per cell robust z, rep 2 = -0.515; Wolbachia per cell robust z, rep 3 = 0.85
Exn #3: Wolbachia per cell robust z, rep 1 = -0.12; Wolbachia per cell robust z, rep 2 = 0.0938; Wolbachia per cell robust z, rep 3 = 1.68
Exn #4: Wolbachia per cell robust z, rep 1 = 0.13; Wolbachia per cell robust z, rep 2 = 1.59; Wolbachia per cell robust z, rep 3 = 0.897

Ordered by “Wolbachia per cell robust z, rep 2” (ascending): 3 of the entries above
Exn #1: Wolbachia per cell robust z, rep 1 = 0.469; Wolbachia per cell robust z, rep 2 = -1.07; Wolbachia per cell robust z, rep 3 = -2.66
Exn #2: Wolbachia per cell robust z, rep 1 = 0.799; Wolbachia per cell robust z, rep 2 = -0.515; Wolbachia per cell robust z, rep 3 = 0.85
Exn #3: Wolbachia per cell robust z, rep 1 = -0.12; Wolbachia per cell robust z, rep 2 = 0.0938; Wolbachia per cell robust z, rep 3 = 1.68
